According to ChEMBL document CHEMBL4811225 (J Med Chem, 2021):
pIC50: −log10 of the molar value.

Protein sequences, listed by entry. Tags and fused reporters are not part of them. Residues count along the entry.
UniProt P30926, 22-498 limits assumed: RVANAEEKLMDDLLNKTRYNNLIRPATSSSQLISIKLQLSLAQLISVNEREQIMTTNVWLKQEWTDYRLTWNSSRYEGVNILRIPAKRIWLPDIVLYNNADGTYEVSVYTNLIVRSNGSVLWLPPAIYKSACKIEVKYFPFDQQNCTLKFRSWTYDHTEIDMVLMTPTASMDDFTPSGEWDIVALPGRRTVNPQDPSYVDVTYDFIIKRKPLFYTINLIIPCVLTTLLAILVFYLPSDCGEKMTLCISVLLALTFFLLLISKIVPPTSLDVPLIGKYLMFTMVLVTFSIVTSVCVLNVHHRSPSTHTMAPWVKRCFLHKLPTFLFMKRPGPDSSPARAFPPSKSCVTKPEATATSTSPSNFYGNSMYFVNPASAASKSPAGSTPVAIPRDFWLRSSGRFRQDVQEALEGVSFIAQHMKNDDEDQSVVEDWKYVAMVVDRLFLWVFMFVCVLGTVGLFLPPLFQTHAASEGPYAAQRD
UniProt P32297, 32-505 limits assumed: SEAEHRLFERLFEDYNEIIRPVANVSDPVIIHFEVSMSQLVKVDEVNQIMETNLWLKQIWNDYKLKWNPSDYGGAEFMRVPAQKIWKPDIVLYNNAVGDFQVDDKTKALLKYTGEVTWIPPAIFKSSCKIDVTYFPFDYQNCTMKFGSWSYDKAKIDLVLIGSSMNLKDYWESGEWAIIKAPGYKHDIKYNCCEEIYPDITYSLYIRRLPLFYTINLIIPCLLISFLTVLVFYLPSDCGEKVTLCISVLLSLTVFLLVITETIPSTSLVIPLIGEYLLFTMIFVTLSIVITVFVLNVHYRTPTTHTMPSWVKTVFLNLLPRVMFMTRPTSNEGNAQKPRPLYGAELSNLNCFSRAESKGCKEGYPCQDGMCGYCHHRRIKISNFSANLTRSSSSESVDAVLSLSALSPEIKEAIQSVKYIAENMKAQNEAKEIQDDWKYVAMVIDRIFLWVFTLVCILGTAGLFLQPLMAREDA
UniProt Q15825, 26-494 limits assumed: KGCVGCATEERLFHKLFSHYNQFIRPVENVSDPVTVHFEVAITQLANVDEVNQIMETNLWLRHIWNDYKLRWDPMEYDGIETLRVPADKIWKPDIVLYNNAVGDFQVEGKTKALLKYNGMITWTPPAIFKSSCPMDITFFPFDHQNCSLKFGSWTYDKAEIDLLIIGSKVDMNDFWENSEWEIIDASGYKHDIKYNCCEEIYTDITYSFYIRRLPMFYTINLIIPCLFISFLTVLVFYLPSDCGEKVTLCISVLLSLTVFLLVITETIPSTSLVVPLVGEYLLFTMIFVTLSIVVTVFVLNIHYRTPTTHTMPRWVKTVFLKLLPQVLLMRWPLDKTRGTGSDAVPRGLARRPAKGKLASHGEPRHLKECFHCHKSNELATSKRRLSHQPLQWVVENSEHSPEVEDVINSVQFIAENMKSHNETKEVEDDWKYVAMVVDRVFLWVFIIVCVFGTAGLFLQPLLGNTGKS
UniProt P04757, 26-499 limits assumed: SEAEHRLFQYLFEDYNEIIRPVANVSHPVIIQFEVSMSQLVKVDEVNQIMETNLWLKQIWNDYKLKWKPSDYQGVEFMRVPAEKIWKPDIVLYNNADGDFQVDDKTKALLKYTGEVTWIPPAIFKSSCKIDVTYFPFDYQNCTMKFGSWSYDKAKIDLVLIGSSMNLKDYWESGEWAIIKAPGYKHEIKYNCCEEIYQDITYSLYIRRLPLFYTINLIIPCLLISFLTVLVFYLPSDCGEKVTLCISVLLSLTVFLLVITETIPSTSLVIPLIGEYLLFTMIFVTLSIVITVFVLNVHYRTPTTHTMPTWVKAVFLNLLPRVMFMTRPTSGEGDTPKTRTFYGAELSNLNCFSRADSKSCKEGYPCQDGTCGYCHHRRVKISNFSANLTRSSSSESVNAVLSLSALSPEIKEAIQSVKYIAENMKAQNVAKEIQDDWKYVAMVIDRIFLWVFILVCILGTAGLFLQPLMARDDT
UniProt P12392, 21-495 limits assumed: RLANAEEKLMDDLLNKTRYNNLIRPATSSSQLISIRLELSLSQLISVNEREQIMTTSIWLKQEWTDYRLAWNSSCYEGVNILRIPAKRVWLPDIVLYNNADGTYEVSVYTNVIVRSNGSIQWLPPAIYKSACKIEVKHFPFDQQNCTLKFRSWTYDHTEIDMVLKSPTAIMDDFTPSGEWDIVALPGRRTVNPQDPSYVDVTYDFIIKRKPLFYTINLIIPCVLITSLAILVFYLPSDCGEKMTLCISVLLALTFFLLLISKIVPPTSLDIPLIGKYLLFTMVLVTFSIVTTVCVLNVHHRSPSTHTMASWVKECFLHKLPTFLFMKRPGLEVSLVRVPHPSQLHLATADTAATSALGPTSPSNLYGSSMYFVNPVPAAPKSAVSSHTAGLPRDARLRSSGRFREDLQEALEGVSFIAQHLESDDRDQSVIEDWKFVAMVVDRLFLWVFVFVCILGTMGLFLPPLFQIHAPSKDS
UniProt P43143, 31-493 limits assumed: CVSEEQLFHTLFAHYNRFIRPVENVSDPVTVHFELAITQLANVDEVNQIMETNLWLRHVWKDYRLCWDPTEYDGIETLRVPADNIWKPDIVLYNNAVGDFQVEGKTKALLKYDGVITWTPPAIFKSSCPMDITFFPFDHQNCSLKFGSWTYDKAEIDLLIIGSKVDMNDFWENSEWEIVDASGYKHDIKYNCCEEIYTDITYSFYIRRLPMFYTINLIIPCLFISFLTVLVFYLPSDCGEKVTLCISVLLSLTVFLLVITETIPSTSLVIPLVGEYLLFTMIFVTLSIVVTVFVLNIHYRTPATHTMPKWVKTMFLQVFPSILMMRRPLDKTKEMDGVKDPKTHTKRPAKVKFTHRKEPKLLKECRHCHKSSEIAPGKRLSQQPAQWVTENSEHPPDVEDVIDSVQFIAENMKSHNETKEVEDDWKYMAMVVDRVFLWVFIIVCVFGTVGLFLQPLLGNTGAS

Legend:
[1] = target: Nicotinic acetylcholine receptor alpha6/alpha3/beta4 (Homo sapiens, UniProt P30926+P32297+Q15825); conditions: oocyte
[2] = target: Nicotinic acetylcholine receptor alpha6/alpha3/beta4 (Rattus norvegicus, UniProt P04757+P12392+P43143); conditions: oocyte

Structure (SMILES) | pIC50 [1] | pIC50 [2]
CC(C)C[C@@H]1NC(=O)[C@H](CCC(=O)O)NC(=O)[C@H](CO)NC(=O)[C@H](Cc2cnc[nH]2)NC(=O)[C@H](CC(N)=O)NC(=O)[C@H](C(C)C)NC(=O)[C@H](CO)NC(=O)[C@@H]2CSSC[C@H](NC(=O)CN)C(=O)N[C@@H](CSSC[C@@H](C(N)=O)NC1=O)C(=O)N[C@@H](CO)C(=O)N[C@@H](Cc1cnc[nH]1)C(=O)N1CCC[C@H]1C(=O)N[C@@H](C)C(=O)N2 | 7.63 | 6.92
CC(C)C[C@@H]1NC(=O)[C@H](CCC(=O)O)NC(=O)[C@@H]2CCCN2C(=O)[C@H](Cc2cnc[nH]2)NC(=O)[C@H](CC(N)=O)NC(=O)[C@H](C(C)C)NC(=O)[C@H](CCCNC(=N)N)NC(=O)[C@@H]2CSSC[C@H](NC(=O)CN)C(=O)N[C@@H](CSSC[C@@H](C(N)=O)NC1=O)C(=O)N[C@@H](CO)C(=O)N[C@@H](Cc1cnc[nH]1)C(=O)N1CCC[C@H]1C(=O)N[C@@H](C)C(=O)N2 | 7.01 | 5.01
CCCC[C@@H]1NC(=O)[C@H](CCC(=O)O)NC(=O)[C@@H]2CCCN2C(=O)[C@H](Cc2cnc[nH]2)NC(=O)[C@H](CC(N)=O)NC(=O)[C@H](C(C)C)NC(=O)[C@H](CO)NC(=O)[C@@H]2CSSC[C@H](NC(=O)CN)C(=O)N[C@@H](CSSC[C@@H](C(N)=O)NC1=O)C(=O)N[C@@H](CO)C(=O)N[C@@H](Cc1cnc[nH]1)C(=O)N1CCC[C@H]1C(=O)N[C@@H](C)C(=O)N2 | 7.68 | 6.55
CC(C)C[C@@H]1NC(=O)[C@H](C)NC(=O)[C@@H]2CCCN2C(=O)[C@H](Cc2cnc[nH]2)NC(=O)[C@H](CC(N)=O)NC(=O)[C@H](C(C)C)NC(=O)[C@H](CO)NC(=O)[C@@H]2CSSC[C@H](NC(=O)CN)C(=O)N[C@@H](CSSC[C@@H](C(N)=O)NC1=O)C(=O)N[C@@H](CO)C(=O)N[C@@H](Cc1cnc[nH]1)C(=O)N1CCC[C@H]1C(=O)N[C@@H](C)C(=O)N2 | 7.17 | 6.64
CC(C)C[C@@H]1NC(=O)[C@H](CCC(=O)O)NC(=O)[C@@H]2CCCN2C(=O)[C@H](Cc2cnc[nH]2)NC(=O)[C@H](CCCCN)NC(=O)[C@H](C(C)C)NC(=O)[C@H](CO)NC(=O)[C@@H]2CSSC[C@H](NC(=O)CN)C(=O)N[C@@H](CSSC[C@@H](C(N)=O)NC1=O)C(=O)N[C@@H](CO)C(=O)N[C@@H](Cc1cnc[nH]1)C(=O)N1CCC[C@H]1C(=O)N[C@@H](C)C(=O)N2 | 8.84 | 7.35
CC(C)C[C@@H]1NC(=O)[C@H](CCC(=O)O)NC(=O)[C@@H]2CCCN2C(=O)[C@H](Cc2cnc[nH]2)NC(=O)[C@H](CC(N)=O)NC(=O)[C@H](C(C)C)NC(=O)[C@H](CO)NC(=O)[C@@H]2CSSC[C@H](NC(=O)CN)C(=O)N[C@@H](CSSC[C@@H](C(N)=O)NC1=O)C(=O)N[C@@H](CO)C(=O)N[C@@H](CC(N)=O)C(=O)N1CCC[C@H]1C(=O)N[C@@H](C)C(=O)N2 | 7.53 | 7.19
CCCC[C@@H]1NC(=O)[C@H](CO)NC(=O)[C@@H]2CSSC[C@H](NC(=O)CN)C(=O)N[C@@H](CSSC[C@@H](C(N)=O)NC(=O)[C@H](CC(C)C)NC(=O)[C@H](CCC(=O)O)NC(=O)[C@@H]3CCCN3C(=O)[C@H](Cc3cnc[nH]3)NC(=O)[C@H](CC(N)=O)NC1=O)C(=O)N[C@@H](CO)C(=O)N[C@@H](Cc1cnc[nH]1)C(=O)N1CCC[C@H]1C(=O)N[C@@H](C)C(=O)N2 | 7.87 | 6.30
CC(C)C[C@@H]1NC(=O)[C@H](CCC(=O)O)NC(=O)[C@@H]2CCCN2C(=O)[C@H](Cc2cnc[nH]2)NC(=O)[C@H](CC(N)=O)NC(=O)[C@H](C(C)C)NC(=O)[C@H](CO)NC(=O)[C@@H]2CSSC[C@H](NC(=O)CN)C(=O)N[C@@H](CSSC[C@@H](C(N)=O)NC1=O)C(=O)N[C@@H](CCO)C(=O)N[C@@H](Cc1cnc[nH]1)C(=O)N1CCC[C@H]1C(=O)N[C@@H](C)C(=O)N2 | 7.58 | 6.17
CC(C)C[C@@H]1NC(=O)[C@H](CC(=O)O)NC(=O)[C@@H]2CCCN2C(=O)[C@H](Cc2cnc[nH]2)NC(=O)[C@H](CC(N)=O)NC(=O)[C@H](C(C)C)NC(=O)[C@H](CO)NC(=O)[C@@H]2CSSC[C@H](NC(=O)CN)C(=O)N[C@@H](CSSC[C@@H](C(N)=O)NC1=O)C(=O)N[C@@H](CO)C(=O)N[C@@H](Cc1cnc[nH]1)C(=O)N1CCC[C@H]1C(=O)N[C@@H](C)C(=O)N2 | 7.89 | 6.32
CC(C)C[C@@H]1NC(=O)[C@H](CCC(=O)O)NC(=O)[C@@H]2CCCN2C(=O)[C@H](Cc2cnc[nH]2)NC(=O)[C@H](CC(N)=O)NC(=O)[C@H](CCCNC(=N)N)NC(=O)[C@H](CO)NC(=O)[C@@H]2CSSC[C@H](NC(=O)CN)C(=O)N[C@@H](CSSC[C@@H](C(N)=O)NC1=O)C(=O)N[C@@H](CO)C(=O)N[C@@H](Cc1cnc[nH]1)C(=O)N1CCC[C@H]1C(=O)N[C@@H](C)C(=O)N2 | 6.57 | 5.67
CC(C)C[C@@H]1NC(=O)[C@H](CCC(=O)O)NC(=O)[C@@H]2CCCN2C(=O)[C@H](Cc2cnc[nH]2)NC(=O)[C@H](CC(N)=O)NC(=O)[C@H](C(C)C)NC(=O)[C@H](Cc2cnc[nH]2)NC(=O)[C@@H]2CSSC[C@H](NC(=O)CN)C(=O)N[C@@H](CSSC[C@@H](C(N)=O)NC1=O)C(=O)N[C@@H](CO)C(=O)N[C@@H](Cc1cnc[nH]1)C(=O)N1CCC[C@H]1C(=O)N[C@@H](C)C(=O)N2 | 8.54 | 7.74
CC(C)C[C@@H]1NC(=O)[C@H](CCC(=O)O)NC(=O)[C@@H]2CCCN2C(=O)[C@H](Cc2cnc[nH]2)NC(=O)[C@H](CCCNC(=N)N)NC(=O)[C@H](C(C)C)NC(=O)[C@H](CC(N)=O)NC(=O)[C@@H]2CSSC[C@H](NC(=O)CN)C(=O)N[C@@H](CSSC[C@@H](C(N)=O)NC1=O)C(=O)N[C@@H](CO)C(=O)N[C@@H](Cc1cnc[nH]1)C(=O)N1CCC[C@H]1C(=O)N[C@@H](C(C)C)C(=O)N2 | 9.55 | 8.74
CC(C)C[C@@H]1NC(=O)[C@H](CCC(=O)O)NC(=O)[C@@H]2CCCN2C(=O)[C@H](Cc2cnc[nH]2)NC(=O)[C@H](CC(N)=O)NC(=O)[C@H](C(C)C)NC(=O)[C@H](CO)NC(=O)[C@@H]2CSSC[C@H](NC(=O)CN)C(=O)N[C@@H](CSSC[C@@H](C(N)=O)NC1=O)C(=O)N[C@@H](C(C)C)C(=O)N[C@@H](Cc1cnc[nH]1)C(=O)N1CCC[C@H]1C(=O)N[C@@H](C)C(=O)N2 | 7.53 | 5.98
CC(C)[C@@H]1NC(=O)[C@H](CO)NC(=O)[C@@H]2CSSC[C@H](NC(=O)CN)C(=O)N[C@@H](CSSC[C@@H](C(N)=O)NC(=O)[C@H](CCCNC(=N)N)NC(=O)[C@H](CCC(=O)O)NC(=O)[C@@H]3CCCN3C(=O)[C@H](Cc3cnc[nH]3)NC(=O)[C@H](CC(N)=O)NC1=O)C(=O)N[C@@H](CO)C(=O)N[C@@H](Cc1cnc[nH]1)C(=O)N1CCC[C@H]1C(=O)N[C@@H](C)C(=O)N2 | 7.50 | 6.43
CC(C)C[C@@H]1NC(=O)[C@H](CC(C(=O)O)C(=O)O)NC(=O)[C@@H]2CCCN2C(=O)[C@H](Cc2cnc[nH]2)NC(=O)[C@H](CC(N)=O)NC(=O)[C@H](C(C)C)NC(=O)[C@H](CO)NC(=O)[C@@H]2CSSC[C@H](NC(=O)CN)C(=O)N[C@@H](CSSC[C@@H](C(N)=O)NC1=O)C(=O)N[C@@H](CO)C(=O)N[C@@H](Cc1cnc[nH]1)C(=O)N1CCC[C@H]1C(=O)N[C@@H](C)C(=O)N2 | 7.74 | 6.37
